Common to all, as to assay type: functional
The subject of test [1] is Pseudomonas aeruginosa. The test is described as follows: Induction of mexY in Pseudomonas aeruginosa PAO1 clinical isolate harboring nfxB gene at 0.5 times MIC after 4 hrs relative to control.
For test [2], the system named is Pseudomonas aeruginosa. The test is described as follows: Induction of mexY in Pseudomonas aeruginosa EryR clinical isolate harboring nfxB C199T mutant gene at 0.5 times MIC after 4 hrs relative to control.
In test [3] the test system is Pseudomonas aeruginosa. The test is described as follows: Induction of mexY in Pseudomonas aeruginosa EryR clinical isolate harboring pNF225 at 0.5 times MIC after 4 hrs relative to control.
Test [4] deals with Pseudomonas aeruginosa. The test is described as follows: Induction of mexY in Pseudomonas aeruginosa 3308 clinical isolate harboring nfxB deltaA122-G131 mutant gene at 0.5 times MIC after 4 hrs relative to control.
For test [5], the system named is Pseudomonas aeruginosa. The test is described as follows: Induction of mexY in Pseudomonas aeruginosa 3308 clinical isolate harboring pNF225 at 0.5 times MIC after 4 hrs relative to control.
Test [6] deals with Pseudomonas aeruginosa. The test is described as follows: Induction of mexY in Pseudomonas aeruginosa 2439 clinical isolate harboring nfxB deltaG177-A178 mutant gene at 0.5 times MIC after 4 hrs relative to control.
The subject of test [7] is Pseudomonas aeruginosa. The test is described as follows: Induction of mexY in Pseudomonas aeruginosa 2439 clinical isolate harboring pNF225 at 0.5 times MIC after 4 hrs relative to control.
For test [8], the system named is Pseudomonas aeruginosa. The test is described as follows: Induction of mexY in Pseudomonas aeruginosa 2126 clinical isolate harboring nfxB deltaC114-T130 mutant gene at 0.5 times MIC after 4 hrs relative to control.
The subject of test [9] is Pseudomonas aeruginosa. The test is described as follows: Induction of mexY in Pseudomonas aeruginosa 2126 clinical isolate harboring pNF225 at 0.5 times MIC after 4 hrs relative to control.
For test [10], the system named is Pseudomonas aeruginosa. The test is described as follows: Induction of mexY in Pseudomonas aeruginosa 1956 clinical isolate harboring nfxB C113T mutant gene at 0.5 times MIC after 4 hrs relative to control.
For test [11], the system named is Pseudomonas aeruginosa. The test is described as follows: Induction of mexY in Pseudomonas aeruginosa 1956 clinical isolate harboring pNF225 at 0.5 times MIC after 4 hrs relative to control.

For the sequence GENTAMICIN, the fold change (FC) is 56.2 in the test with Pseudomonas aeruginosa [1]; 53.5 in the test on Pseudomonas aeruginosa [2]; 65.3 in the test with Pseudomonas aeruginosa [3]; 0.2 in the test with Pseudomonas aeruginosa [4]; 0.5 in the test on Pseudomonas aeruginosa [5]; 20.3 with Pseudomonas aeruginosa [6]. Moreover, the fold change (FC) is 19.3 in the test with Pseudomonas aeruginosa [7]; 10.6 in the test on Pseudomonas aeruginosa [8]; 16.2 in the test on Pseudomonas aeruginosa [9]; 15.5 in the test with Pseudomonas aeruginosa [10]; 33.5 in the test with Pseudomonas aeruginosa [11].

(Values after ChEMBL document CHEMBL1275455, “Resistance and virulence of Pseudomonas aeruginosa clinical strains overproducing the MexCD-OprJ efflux pump” (2008).)
